Anti-infective test results gathered from many reports (values: NIAID ChemDB through PubChem).

All rows: whole-cell or culture tests; agent: Aspergillus niger; read-out: zone

Zone: diameter of growth inhibition. An empty or dashed field is not shown. Rows are shuffled and stem from different studies.

SMILES	tested at	strain	method	value
O=c1c(O)c(-c2ccc(Cl)cc2)oc2ccc(Cl)cc12	100 µg/mL		agar diffusion	17 mm
C(/C=C/c1ccccc1)=NCCNCCN=C/C=C/c1ccccc1.N#C[S][Hg][S]C#N	10000 µg/mL		agar diffusion	24 mm
CC(C)CCCCCOC(=O)c1ccccc1C(=O)OCCCCCC(C)C	10000 µg/mL		agar diffusion / agar	0 mm
O=C1NC(=O)C(=Cc2cn(-c3ccccc3)nc2-c2cc3cc(Br)cc(Br)c3oc2=O)C(=O)N1	150 µg		agar diffusion / agar	10 mm
C[C@H]1[C@H](O)[C@@H](C)/C=C/C=C/C=C/C=C/C=C/C=C/C=C/[C@H](O[C@@H]2O[C@H](C)[C@@H](O)[C@H](N)[C@@H]2O)C[C@@H]2O[C@](O)(C[C@@H](O)C[C@@H](O)CC[C@H](O)[C@@H](O)C[C@@H](O)CC(=O)O[C@H]1C)C[C@H](O)[C@H]2C(=O)O	10 µg/mL		agar diffusion / agar	29 mm
COc1ccccc1-n1c(C)nc2ccc(Br)cc2c1=O	50 µg/mL		agar diffusion / agar	16.58 mm
Oc1cccc2cccnc12	25 µg/mL		agar diffusion / agar	21 mm
CC(=O)N(c1ccccc1)c1nc(C)cc(C)n1	1000 µg/mL			3.4 mm
O=C1NC(=S)NC(=O)C1=Cc1cn(-c2ccccc2)nc1-c1cc2cc(Br)cc(Br)c2oc1=O	150 µg		agar diffusion / agar	0 mm
Cc1ccc(N2NOC(=O)C2S(=O)(=O)Nc2nc3ccc(F)cc3s2)cc1	250 µg/mL	MTCC 282	agar diffusion	21 mm
Cc1nc2ccc(Br)cc2c(=O)n1-c1ccccc1	50 µg/mL		agar diffusion / agar	12.52 mm
Cc1ccc(N2NOC(=O)C2S(=O)(=O)Nc2ccc(-n3c(-c4c(Cl)cccc4[N+](=O)[O-])nc4ccccc4c3=O)cc2)cc1	250 µg/mL	MTCC 282	agar diffusion	18 mm
C(/C=C/c1ccccc1)=NCCNCCN=C/C=C/c1ccccc1.[Br][Hg][Br]	10000 µg/mL		agar diffusion	22 mm
Nc1ccc(S(N)(=O)=O)cc1	25 µg/mL		agar	24 mm
O=C1NC(=S)NC(=O)C1=Cc1cn(-c2ccccc2)nc1-c1cc2ccc3ccccc3c2oc1=O	150 µg		agar diffusion / agar	0 mm
Cc1nc2ccc(Br)cc2c(=O)n1-c1ccc(Cl)c(Cl)c1	50 µg/mL		agar diffusion / agar	24.12 mm
Cc1ccc(N2NOC(=O)C2S(=O)(=O)Nc2nc(-c3c(F)cc(Cl)cc3Cl)cs2)cc1	250 µg/mL	MTCC 282	agar diffusion	17 mm
O=c1c(O)c(-c2ccc(F)cc2)oc2ccccc12	100 µg/mL		agar diffusion	18 mm
O=C1NC(=S)NC(=O)C1=Cc1cn(-c2ccccc2)nc1-c1cc2cc(Br)ccc2oc1=O	100 µg		agar diffusion / agar	0 mm
COc1ccc(-n2c(C)nc3ccc(Br)cc3c2=O)cc1	50 µg/mL		agar diffusion / agar	17.46 mm
CC1(C)CCCC2(C)OCCC=C12	10000 µg/mL		agar diffusion / agar	0.63 mm
CC(=O)Oc1c(-c2ccc(F)cc2)oc2ccc(Cl)cc2c1=O	100 µg/mL		agar diffusion	18 mm
O=C(O)c1cc(O)c(O)c(O)c1	10000 µg/mL		agar diffusion / agar	0 mm
CC(=O)Oc1c(-c2ccccc2)oc2ccccc2c1=O	100 µg/mL		agar diffusion	14 mm
O=C1NC(=O)C(=Cc2cn(-c3ccccc3)nc2-c2cc3cc(Br)ccc3oc2=O)C(=O)N1	100 µg		agar diffusion / agar	14 mm
CC(=O)Oc1c(-c2ccc(N(C)C)cc2)oc2ccccc2c1=O	100 µg/mL		agar diffusion	13 mm
CC(C)(C)c1ccc(O)c(C(C)(C)C)c1	50000 µg/mL		agar diffusion / agar	0.86 mm
O=c1c(O)c(-c2ccc(F)cc2)oc2ccc(Cl)cc12	100 µg/mL		agar diffusion	17 mm
Cc1ccc(N2NOC(=O)C2S(=O)(=O)Nc2nc3ccc(Cl)cc3s2)cc1	250 µg/mL	MTCC 282	agar diffusion	24 mm

For reference, 3 entries again:

| SMILES | tested at | strain | method | value |
|---|---|---|---|---|
| O=c1c(O)c(-c2ccc(F)cc2)oc2ccc(Cl)cc12 | 100 µg/mL |  | agar diffusion | 17 mm |
| Cc1ccc(N2NOC(=O)C2S(=O)(=O)Nc2ccc(-n3c(-c4c(Cl)cccc4[N+](=O)[O-])nc4ccccc4c3=O)cc2)cc1 | 250 µg/mL | MTCC 282 | agar diffusion | 18 mm |
| CC(=O)N(c1ccccc1)c1nc(C)cc(C)n1 | 1000 µg/mL |  |  | 3.4 mm |